This experiment is described as follows: Inhibitory activity against TIBO-resistant HIV-1 RT Nucleic Acid polymerase; IA=inactive.

Turning to `CCCc1cc(=O)oc2c3c(c4c(c12)OC(C)(C)C=C4)O[C@@H](C)[C@H](C)[C@@H]3O` [COSTATOLIDE], the IC50 result is given as “Not Active”.

Source of the values: ChEMBL document CHEMBL1129527, “Synthesis, chromatographic resolution, and anti-human immunodeficiency virus activity of (+/-)-calanolide A and its enantiomers” (J Med Chem, 1996).
